Share of PSTVd stem 3 variants by leaf site

PSTVd intermediate strain, stem 3: wild type GUGGUUCCGGAACCGC, pool pattern GUGGUUCCGNANNCNN; upper and lower strand joined, each 5' to 3', the first 8 letters being the upper strand.

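Three N. benthamiana plants were inoculated with the whole mutant pool. Samples came from the inoculated region at 5 days, the leaf margin at 10 and upper systemic leaves at 12.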

Values are reads per thousand in the sample; higher means more abundant, 0 means not found.
Each value is the mean of three plants.
"Pool" is the share in the plasmid pool used as inoculum, on the same scale.
The inoculated region was read from the minus strand, the other sites from the plus strand.
IR is the inoculated region, LM the leaf margin, Sys the systemic leaves.
Sequences that differ at fixed positions probably stem from PCR or sequencing errors, and defective variants can be carried along by functional ones.
With 27,691-54,225 reads a sample, very low values are single reads.
Wild type was 17.3 per thousand in the pool and the most common sequence in every sample (inoculated region 330, 345, 235; leaf margin 794, 766, 816; systemic leaves 830, 792, 869).

With GUGGGUCCGGAAGCGA (pool 0.0154) the assay gave IR 0; LM 0; Sys 0.
With GUGGGUCCGUAUACCU (pool 0.0154) the assay gave IR 0; LM 0; Sys 0.
With GUGGUUCCACAUACGA (pool 0.0462) the assay gave IR 0; LM 0; Sys 0.
With GUGGUUCCCGAACCGC (pool 0.0154) the assay gave IR 0.0969; LM 0.119; Sys 0.187.
With GUGGUUCCGAAACCGU (pool 0.831) the assay gave IR 0.765; LM 0; Sys 0.
With GUGGUUCCGAACCCGA (pool 0.954) the assay gave IR 0.324; LM 0.0226; Sys 0.
With GUGGUUCCGAACUCAG (pool 1.55) the assay gave IR 0.869; LM 0.879; Sys 1.08.
With GUGGUUCCGAAUCCAG (pool 0.800) the assay gave IR 0.762; LM 0.156; Sys 0.
With GUGGUUCCGAAUGCUU (pool 0.616) the assay gave IR 0.735; LM 0.163; Sys 0.
With GUGGUUCCGCAAUCUA (pool 0.923) the assay gave IR 0.372; LM 0.0106; Sys 0.
With GUGGUUCCGCACUCGG (pool 0.893) the assay gave IR 0.281; LM 0; Sys 0.
With GUGGUUCCGCAGGCCA (pool 0.862) the assay gave IR 0.394; LM 0; Sys 0.
With GUGGUUCCGCAGUCGA (pool 0.769) the assay gave IR 0.782; LM 0.131; Sys 0.
With GUGGUUCCGCAUUCGA (pool 0.800) the assay gave IR 0.247; LM 0.0120; Sys 0.
With GUGGUUCCGGAAACUC (pool 0.846) the assay gave IR 0.283; LM 0.0106; Sys 0.00621.
With GUGGUUCCGGAAUCCU (pool 0.816) the assay gave IR 0.853; LM 0.143; Sys 0.
With GUGGUUCCGGACACGG (pool 0.846) the assay gave IR 0.394; LM 0; Sys 0.
With GUGGUUCCGGACGCCU (pool 1.03) the assay gave IR 0.210; LM 0.0106; Sys 0.
With GUGGUUCCGGAGCCCA (pool 0.785) the assay gave IR 0.706; LM 0.196; Sys 0.
With GUGGUUCCGGAGCCCC (pool 1.28) the assay gave IR 0.385; LM 0; Sys 0.
With GUGGUUCCGGAGGCGU (pool 0.939) the assay gave IR 0.711; LM 0; Sys 0.
With GUGGUUCCGGAGUCAG (pool 0.877) the assay gave IR 0.690; LM 0.469; Sys 0.
With GUGGUUCCGUAAACGA (pool 0.785) the assay gave IR 0.261; LM 0; Sys 0.
With GUGGUUCCGUACACGG (pool 0.954) the assay gave IR 0.369; LM 0.0106; Sys 0.
With GUGGUUCCGUACACUA (pool 0.893) the assay gave IR 0.318; LM 0; Sys 0.
With GUGGUUCCGUAGCCCC (pool 0.970) the assay gave IR 0.367; LM 0.0120; Sys 0.
With GUGGUUCCGUAGCCCG (pool 0.739) the assay gave IR 0.385; LM 0.0347; Sys 0.
With GUGGUUCCGUAGUCAU (pool 0.923) the assay gave IR 0.680; LM 1.05; Sys 1.18.
With GUGGUUCCGUAGUCCC (pool 1.71) the assay gave IR 1.09; LM 0.251; Sys 0.
With GUGGUUCCGUAUCCAU (pool 0.877) the assay gave IR 0.688; LM 0.117; Sys 0.
With GUGGUUCCGUAUGCUA (pool 0.800) the assay gave IR 0.274; LM 0.0332; Sys 0.
With GUGGUUCCGUAUUGGU (pool 0.400) the assay gave IR 0.875; LM 0.219; Sys 0.0682.

The first 2 entries again:

| sequence | pool | IR | LM | Sys |
|---|---|---|---|---|
| GUGGGUCCGGAAGCGA | 0.0154 | 0 | 0 | 0 |
| GUGGGUCCGUAUACCU | 0.0154 | 0 | 0 | 0 |

The measurements come from Wu et al. 2024 (doi:10.1371/journal.ppat.1012142).